# Test results reported in PMC7144120, “Psoralen Derivatives as Inhibitors of Mycobacterium tuberculosis Proteasome” (Molecules, 2020).
# Test system: ß5i of IP
# Test: Inhibition of ß5i subunit of immunoproteasome (previously published data)
# Conditions: human IP vs Mtb proteasome
row,SMILES,selectivity towards the human IP over Mtb proteasome
1,"COc1ccc(C[C@H](NC(=O)[C@H](C)NC(=O)CN2CCOCC2)C(=O)N[C@@H](Cc2ccccc2)C(=O)[C@@]2(C)CO2)cc1 [PR-957, reference compound]",~300 fold
2,"CC(C)C[C@H](NC(=O)[C@H](Cc1ccccc1)NC(=O)c1cnccn1)B(O)O [Bortezomib, reference compound]",approximately 30 fold
